The record followed here is US12577587B2 (priority 2009, dated 2026).

The target in experiment [1] is T1, EF2 (Homo sapiens, UniProt P13639). In kind it is biochemical.
For experiment [2], the target named is T1, EF2. The format is cell-based.

Turning to Diphtheria toxin, the EF2 ribosylation result at EF2 [1] is “impaired”. Further, the “EF-2 mobility shift (ADP-ribosylation)” value at EF2 [2] was “mobility shift of EF-2”.
